Anti-infective test results gathered from many reports (values: NIAID ChemDB through PubChem).

Shared fields: growth or infection tests; agent: Mycobacterium avium complex; read-out: MIC

Conditions beyond the fields shown may differ between rows.

{"SMILES": "CCn1cc(C(=O)O)c(=O)c2cc(F)c(N3CCNCC3)nc21", "strain": "CIPT 140310030", "value": "20 µg/mL"}
{"SMILES": "CC1CN(c2c(F)cc3c(=O)c(C(=O)O)cn(C4CC4)c3c2F)C(C)CN1", "strain": "1988557", "value": "2 µg/mL"}
{"SMILES": "NNC(=O)c1ccncc1", "strain": "1056", "value": "4 µg/mL"}
{"SMILES": "O=C(O)c1cn(C2CC2)c2c(F)c(N3CC4C(CO)C4C3)c(F)cc2c1=O", "strain": "1988557", "value": "8 µg/mL"}
{"SMILES": "CC1(C)S[C@@H]2[C@H](NC(=O)Cc3ccccc3)C(=O)N2[C@H]1C(=O)O", "strain": "31 strains", "value": "16 µg/mL"}
{"SMILES": "CCCCCCCCOC1OC(C)C(O[C@@H]2O[C@@H]([C@H](O)CO)[C@H](O)[C@H]2O)C(O)C1O", "strain": "NJ168", "value": ">128 µg/mL"}
{"SMILES": "CO[C@H]1/C=C/O[C@@]2(C)Oc3c(C)c(O)c4c(=O)c(c5oc6cc(N7CCN(CC(C)C)CC7)cc(=O)c6nc5c4c3=C2O)NC(=O)/C(C)=C\\C=C\\[C@H](C)[C@H](O)[C@@H](C)[C@@H](O)[C@@H](C)[C@H](OC(C)=O)[C@@H]1C", "strain": "N-966", "value": "0.12 µg/mL"}
{"SMILES": "CN[C@@H]1[C@@H](O)[C@@H](O[C@@H]2[C@@H](O)[C@H](O[C@H]3O[C@H](CN)CC[C@H]3N)[C@@H](N)C[C@H]2N)OC[C@]1(C)O", "strain": "Isolate 49", "value": "3.13 µg/mL"}
{"SMILES": "CC1COc2c(N3CCN(C)CC3)c(F)cc3c(=O)c(C(=O)O)cn1c23", "strain": "1423/HIV+", "value": "8 µg/mL"}
{"SMILES": "CCn1cc(C(=O)O)c(=O)c2cc(F)c(N3CCN(C)CC3)cc21", "strain": "CIPT 14031003", "value": "20 µg/mL"}
{"SMILES": "CCN[C@@H]1C[C@H](N)[C@@H](O[C@H]2OC(CN)=CC[C@H]2N)[C@H](O)[C@H]1O[C@H]1OC[C@](C)(O)[C@H](NC)[C@H]1O", "strain": "31 strains", "value": "16 µg/mL"}
{"SMILES": "NC[C@@H]1O[C@H](O[C@H]2[C@@H](O)[C@H](O[C@@H]3[C@@H](O)[C@H](N)C[C@H](N)[C@H]3O[C@H]3O[C@H](CO)[C@@H](O)C[C@H]3N)O[C@@H]2CO)[C@H](N)[C@@H](O)[C@@H]1O[C@H]1O[C@H](CO)[C@@H](O)[C@H](O)[C@@H]1O", "strain": "TMC 1473", "value": "3.13 µg/mL"}
{"SMILES": "CC[C@H]1OC(=O)[C@H](C)[C@@H](O[C@H]2C[C@@](C)(OC)[C@@H](O)[C@H](C)O2)[C@H](C)[C@@H](O[C@@H]2O[C@H](C)C[C@H](N(C)C)[C@H]2O)[C@](C)(OC)C[C@@H](C)C(=O)[C@H](C)[C@@H](O)[C@]1(C)O", "strain": "Strain #3", "value": "1 µg/mL"}
{"SMILES": "CN[C@H](CC(C)C)C(=O)N[C@H]1C(=O)N[C@@H](CC(N)=O)C(=O)N[C@H]2C(=O)N[C@H]3C(=O)N[C@H](C(=O)N[C@H](C(=O)O)c4cc(O)cc(O)c4-c4cc3ccc4O)[C@H](O)c3ccc(c(Cl)c3)Oc3cc2cc(c3O[C@@H]2O[C@H](CO)[C@@H](O)[C@H](O)[C@H]2O[C@H]2C[C@](C)(N)[C@H](O)[C@H](C)O2)Oc2ccc(cc2Cl)[C@H]1O", "strain": "31 strains", "value": "16 µg/mL"}
{"SMILES": "CO[C@H]1/C=C/O[C@@]2(C)Oc3c(C)c(O)c4c(O)c(c(/C=N/N5CCN(C)CC5)c(O)c4c3C2=O)NC(=O)/C(C)=C\\C=C\\[C@H](C)[C@H](O)[C@@H](C)[C@@H](O)[C@@H](C)[C@H](OC(C)=O)[C@@H]1C", "strain": "1012", "value": "2 µg/mL"}
{"SMILES": "CC[C@H]1OC(=O)[C@H](C)[C@@H](O[C@H]2C[C@@](C)(OC)[C@@H](O)[C@H](C)O2)[C@H](C)[C@@H](O[C@@H]2O[C@H](C)C[C@H](N(C)C)[C@H]2O)[C@](C)(OC)C[C@@H](C)C(=O)[C@H](C)[C@@H](O)[C@]1(C)O", "strain": "N-966", "value": "16 µg/mL"}
{"SMILES": "CC1CN(c2cc3c(cc2F)c(=O)c(C(=O)O)cn3-c2ccc(F)cc2F)CCN1", "strain": "3215", "value": "4 µg/mL"}
{"SMILES": "COc1c(N2CCNC(C)C2)c(F)cc2c(=O)c(C(=O)O)cn(C3CC3)c12", "strain": "N-444", "value": "2 µg/mL"}
{"SMILES": "NC[C@H]1O[C@H](O[C@H]2[C@H](O)[C@@H](O[C@H]3O[C@H](CO)[C@@H](O)[C@H](N)[C@H]3O)[C@H](N)C[C@@H]2N)[C@H](O)[C@@H](O)[C@@H]1O", "strain": "N-981 (HIV+)", "value": "8 µg/mL"}
{"SMILES": "CC1(CN)CCN(c2c(F)cc3c(=O)c(C(=O)O)cn(C4CC4)c3c2F)C1", "strain": "1915112", "value": "32 µg/mL"}
{"SMILES": "NC[C@H]1O[C@H](O[C@H]2[C@H](O)[C@@H](O[C@H]3O[C@H](CO)[C@@H](O)[C@H](N)[C@H]3O)[C@H](N)C[C@@H]2N)[C@H](O)[C@@H](O)[C@@H]1O", "strain": "Isolate C-27", "value": "50 µg/mL"}
{"SMILES": "CC[C@@H](CO)NCCN[C@@H](CC)CO", "strain": "N-444", "value": "16 µg/mL"}
{"SMILES": "CC(C)N=c1cc2n(-c3ccc(Cl)cc3)c3ccccc3nc-2cc1Nc1ccc(Cl)cc1", "strain": "ATCC35713", "value": "1.5 µg/mL"}
{"SMILES": "CC[C@@H](CO)NCCN[C@@H](CC)CO", "strain": "N-966", "value": "32 µg/mL"}
{"SMILES": "NCC[C@H](O)C(=O)N[C@@H]1C[C@H](N)[C@@H](O[C@H]2O[C@H](CN)[C@@H](O)[C@H](O)[C@H]2O)[C@H](O)[C@H]1O[C@H]1O[C@H](CO)[C@@H](O)[C@H](N)[C@H]1O", "strain": "Isolate 122", "value": "50 µg/mL"}
{"SMILES": "CCCCCCn1c(C)cc(CN2CCN(C)CC2)c1C", "strain": "103317", "value": "16 µg/mL"}
{"SMILES": "CO[C@H]1/C=C/O[C@@]2(C)Oc3c(C)c(O)c4c(O)c(c(/C=N/N5CCN(C6CCCC6)CC5)c(O)c4c3C2=O)NC(=O)/C(C)=C\\C=C\\[C@H](C)[C@H](O)[C@@H](C)[C@@H](O)[C@@H](C)[C@H](OC(C)=O)[C@@H]1C", "strain": "Serotype 9", "value": ">40 µg/mL"}
{"SMILES": "NCC1CCN(c2c(F)cc3c(=O)c(C(=O)O)cn(C4CC4)c3c2F)C1", "strain": "1760694", "value": "4 µg/mL"}
{"SMILES": "Cc1cc(CN2CCN(C)CC2)c(C)n1C1CCCCC1", "strain": "103317", "value": ">64 µg/mL"}
{"SMILES": "NC[C@@H]1O[C@H](O[C@H]2[C@@H](O)[C@H](O[C@@H]3[C@@H](O)[C@H](N)C[C@H](N)[C@H]3O[C@H]3O[C@H](CO)[C@@H](O)[C@H](O)[C@H]3N)O[C@@H]2CO)[C@H](N)[C@@H](O)[C@@H]1O", "strain": "TMC 1403", "value": "0.78 µg/mL"}
{"SMILES": "CN[C@@H]1[C@H](O[C@H]2[C@H](O[C@H]3[C@H](O)[C@@H](O)[C@H](N=C(N)N)[C@@H](O)[C@@H]3N=C(N)N)O[C@@H](C)[C@]2(O)C=O)O[C@@H](CO)[C@H](O)[C@H]1O", "strain": "N-444", "value": "4 µg/mL"}
{"SMILES": "CO[C@H]1/C=C/O[C@@]2(C)Oc3c(C)c(O)c4c(O)c(c(/C=N/N5CCN(C)CC5)c(O)c4c3C2=O)NC(=O)/C(C)=C\\C=C\\[C@H](C)[C@H](O)[C@@H](C)[C@@H](O)[C@@H](C)[C@H](OC(C)=O)[C@@H]1C", "strain": "101", "value": "16 µg/mL"}
{"SMILES": "NCC[C@H](O)C(=O)N[C@@H]1C[C@H](N)[C@@H](O[C@H]2O[C@H](CN)[C@@H](O)[C@H](O)[C@H]2O)[C@H](O)[C@H]1O[C@H]1O[C@H](CO)[C@@H](O)[C@H](N)[C@H]1O", "strain": "CH-4/HIV+", "value": "<1.25 µg/mL"}
{"SMILES": "CC[C@@H](CO)NCCN[C@@H](CC)CO", "strain": "1339-3", "value": "1.9 µg/mL"}
{"SMILES": "CCCCCCn1c(C)ccc1C", "strain": "103317", "value": ">16 µg/mL"}
{"SMILES": "CO[C@H]1/C=C/O[C@@]2(C)Oc3c(C)c(O)c4c(O)c(c(/C=N/N5CCN(C/C=C/c6ccccc6)CC5)c(O)c4c3C2=O)NC(=O)/C(C)=C\\C=C\\[C@H](C)[C@H](O)[C@@H](C)[C@@H](O)[C@@H](C)[C@H](OC(C)=O)[C@@H]1C", "strain": "LR549", "value": "≤0.015 µg/mL"}
{"SMILES": "CN1CCN(c2cc3c(cc2F)c(=O)c(C(=O)O)cn3-c2ccc(F)cc2)CC1", "strain": "3214", "value": "16 µg/mL"}
{"SMILES": "O=C(O)c1cn(C2CC2)c2c(F)c(N3CC4CC3CN4)c(F)cc2c1=O", "strain": "1172733", "value": "2 µg/mL"}
{"SMILES": "Cc1c(CN2CCOCC2)cc(-c2ccc(Cl)cc2)n1Cc1ccccc1", "strain": "103317", "value": ">64 µg/mL"}
{"SMILES": "C[C@@H]1CN(c2c(F)c(N)c3c(=O)c(C(=O)O)cn(C4CC4)c3c2F)C[C@H](C)N1", "strain": "4", "read by": "broth dilution", "value": "≤0.06 µg/mL"}
{"SMILES": "CO/N=C(\\C(=O)N[C@@H]1C(=O)N2C(C(=O)O)=C(COC(C)=O)CS[C@H]12)c1csc(N)n1", "strain": "T11", "value": "0.78 µg/mL"}
{"SMILES": "CC[C@H]1OC(=O)[C@H](C)[C@@H](O[C@H]2C[C@@](C)(OC)[C@@H](O)[C@H](C)O2)[C@H](C)[C@@H](O[C@@H]2O[C@H](C)C[C@H](N(C)C)[C@H]2O)[C@](C)(OC)C[C@@H](C)C(=O)[C@H](C)[C@@H](O)[C@]1(C)O", "strain": "3219", "value": "2 µg/mL"}
{"SMILES": "NCC1(O)CCN(c2c(F)cc3c(=O)c(C(=O)O)cn(N4CC4)c3c2F)C1", "strain": "1915112", "value": "32 µg/mL"}
{"SMILES": "CC(C)N=c1cc2n(-c3ccc(Cl)cc3)c3ccccc3nc-2cc1Nc1ccc(Cl)cc1", "strain": "101", "value": "0.5 µg/mL"}
{"SMILES": "NCC[C@H](O)C(=O)N[C@@H]1C[C@H](N)[C@@H](O[C@H]2O[C@H](CN)[C@@H](O)[C@H](O)[C@H]2O)[C@H](O)[C@H]1O[C@H]1O[C@H](CO)[C@@H](O)[C@H](N)[C@H]1O", "strain": "Strain #3", "value": "2 µg/mL"}
{"SMILES": "CC[C@H]1OC(=O)[C@H](C)[C@@H](O[C@H]2C[C@@](C)(OC)[C@@H](O)[C@H](C)O2)[C@H](C)[C@@H](O[C@@H]2O[C@H](C)C[C@H](N(C)C)[C@H]2O)[C@](C)(OC)C[C@@H](C)C(=O)[C@H](C)[C@@H](O)[C@]1(C)O", "strain": "101", "value": "16 µg/mL"}
{"SMILES": "CC[C@H]1OC(=O)[C@H](C)[C@@H](O[C@H]2C[C@@](C)(OC)[C@@H](O)[C@H](C)O2)[C@H](C)[C@@H](O[C@@H]2O[C@H](C)C[C@H](N(C)C)[C@H]2O)[C@](C)(O)C[C@@H](C)C(=O)[C@H](C)[C@@H](O)[C@]1(C)O", "strain": "31 strains", "value": "4 µg/mL"}
{"SMILES": "Cc1c(CN2CCOCC2)cc(-c2ccc(Cl)cc2)n1C1CCCCC1", "strain": "103317", "value": ">64 µg/mL"}
{"SMILES": "NCC[C@H](O)C(=O)N[C@@H]1C[C@H](N)[C@@H](O[C@H]2O[C@H](CN)[C@@H](O)[C@H](O)[C@H]2O)[C@H](O)[C@H]1O[C@H]1O[C@H](CO)[C@@H](O)[C@H](N)[C@H]1O", "strain": "733/HIV+", "value": "4 µg/mL"}
{"SMILES": "CC[C@H]1OC(=O)[C@H](C)[C@@H](O[C@H]2C[C@@](C)(OC)[C@@H](O)[C@H](C)O2)[C@H](C)[C@@H](O[C@@H]2O[C@H](C)C[C@H](N(C)C)[C@H]2O)[C@](C)(OC)C[C@@H](C)C(=O)[C@H](C)[C@@H](O)[C@]1(C)O", "strain": "N-966", "value": "16 µg/mL"}

A second listing of 5 rows from above:

SMILES,strain,read by,value
CC[C@@H](CO)NCCN[C@@H](CC)CO,N-966,,32 µg/mL
NC[C@H]1O[C@H](O[C@H]2[C@H](O)[C@@H](O[C@H]3O[C@H](CO)[C@@H](O)[C@H](N)[C@H]3O)[C@H](N)C[C@@H]2N)[C@H](O)[C@@H](O)[C@@H]1O,Isolate C-27,,50 µg/mL
NC[C@@H]1O[C@H](O[C@H]2[C@@H](O)[C@H](O[C@@H]3[C@@H](O)[C@H](N)C[C@H](N)[C@H]3O[C@H]3O[C@H](CO)[C@@H](O)[C@H](O)[C@H]3N)O[C@@H]2CO)[C@H](N)[C@@H](O)[C@@H]1O,TMC 1403,,0.78 µg/mL
CC(C)N=c1cc2n(-c3ccc(Cl)cc3)c3ccccc3nc-2cc1Nc1ccc(Cl)cc1,101,,0.5 µg/mL
NCC[C@H](O)C(=O)N[C@@H]1C[C@H](N)[C@@H](O[C@H]2O[C@H](CN)[C@@H](O)[C@H](O)[C@H]2O)[C@H](O)[C@H]1O[C@H]1O[C@H](CO)[C@@H](O)[C@H](N)[C@H]1O,733/HIV+,,4 µg/mL

An empty or dashed field is not shown.